# Data taken from paper PMC11281344 (Viruses, 2024).
# The chains behind the UniProt entries cited, without tags or fusion partners. Residues count along the entry.
# UniProt P03305, 1863-2332 limits assumed: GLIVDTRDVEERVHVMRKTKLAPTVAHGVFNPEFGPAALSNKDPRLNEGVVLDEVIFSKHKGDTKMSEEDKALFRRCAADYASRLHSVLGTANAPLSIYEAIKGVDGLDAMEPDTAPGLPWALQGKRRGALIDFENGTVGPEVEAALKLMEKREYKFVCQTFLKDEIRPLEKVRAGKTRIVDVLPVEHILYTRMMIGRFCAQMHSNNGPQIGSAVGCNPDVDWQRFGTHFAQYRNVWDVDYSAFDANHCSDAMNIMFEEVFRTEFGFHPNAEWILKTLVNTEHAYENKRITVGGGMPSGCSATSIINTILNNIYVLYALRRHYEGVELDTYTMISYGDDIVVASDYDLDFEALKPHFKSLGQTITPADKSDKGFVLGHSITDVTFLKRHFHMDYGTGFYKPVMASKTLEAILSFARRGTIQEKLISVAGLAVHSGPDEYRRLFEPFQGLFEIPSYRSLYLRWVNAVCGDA
# pIC50: −log10 of the molar value.
# Biological target: FMDV 3D^pol (Foot-and-mouth disease virus serotype O, UniProt P03305)
# Assay: cell-based
# Conditions: IC50 of FMDV 3Dpol activity (GFP expression)
smiles,measurement,value
CC1=CC(=O)[C@@H](O)[C@]2(C)[C@H]3[C@@H](O)[C@H](O)[C@@]4(C)OC[C@@]35[C@@H](C[C@@H]12)OC(=O)[C@H](O)[C@]54O [Bruceine D],pIC50,6.41 to 6.43
